For one compound, inhibition results are on record in ChEMBL document CHEMBL4303101, “Identification of inhibitors of SARS-CoV-2 in-vitro cellular toxicity in human (Caco-2) cells using a large scale drug repurposing collection” (2020).

This experiment has as its system SARS-CoV-2. Particulars: Homo sapiens; Caco-2; 10 uM.

The term inhibition denotes the drop in the measured response relative to a control, in per cent.

With `CN(C)CCS`, the inhibition is -7.17%.
